Bounds are passed on as bounds.

The target of experiment [1] is neuraminidase (N1) of influenza A virus A/Alabama/03/2020, NA: H275 (H1N1) (influenza A virus A/Alabama/03/2020 (H1N1)).
Experiment [2] has as its target neuraminidase (N1) of influenza A virus A/California/2009 (H1N1) (influenza A virus A/California/2009 (H1N1)).
Experiment [3] deals with neuraminidase (N1) of influenza A virus A/Indiana/02/2020 (H1N1) (influenza A virus A/Indiana/02/2020 (H1N1)).
The target of experiment [4] is neuraminidase (N2) of influenza A virus A/HongKong/1968 (H3N2) (influenza A virus A/Hong Kong/1/1968 (H3N2)) (UniProt Q91MA2).
Experiment [5] deals with neuraminidase (N2) of influenza A virus A/Singapore/INFIMH-16-0019/2016 (H3N2) (influenza A virus A/Singapore/INFIMH-16-0019/2016 (H3N2)).
Experiment [6] has as its target neuraminidase of influenza B virus B/Laos/0654/2016, NA: 134N (Victoria) (influenza B virus B/Laos/0654/2016 (Victoria)).
The target in experiment [7] is Recombinant neuraminidase from B/Massachusetts/02/2012 (Yamagata) (influenza B virus B/Massachusetts/02/2012). Kind of experiment: cryo-EM structure.

Take 1G01 Fab: the In vitro neutralization IC50; […] mAb as IgG was 20.1 µg/mL in experiment [1] and more than 50 µg/mL in experiment [5]. In experiment [2], this substance registered an In vitro neutralization IC50; virus A/California/2009 (H1N1); mAb as IgG of 0.147 µg/mL. Besides, the In vitro neutralization IC50; virus A/Indiana/02/2020 (H1N1); mAb as IgG in experiment [3] came to 34.4 µg/mL. The substance also had an In vitro neutralization IC50; virus A/HongKong/1968 (H3N2); mAb as IgG in experiment [4] of 0.023 µg/mL.
Turning to FNI9 Fab, the figures for the In vitro neutralization IC50; […] mAb as IgG in experiment [1] and in experiment [5] were 0.283 µg/mL and 0.162 µg/mL, respectively. The substance also had an In vitro neutralization IC50; virus A/California/2009 (H1N1); mAb as IgG in experiment [2] of 0.147 µg/mL. The same substance registered an In vitro neutralization IC50; virus A/Indiana/02/2020 (H1N1); mAb as IgG in experiment [3] of 0.161 µg/mL. Moreover, the In vitro neutralization IC50; virus A/HongKong/1968 (H3N2); mAb as IgG in experiment [4] worked out at 0.056 µg/mL.
FNI17 Fab: the In vitro neutralization IC50; […] mAb as IgG in experiment [1] is 0.06 µg/mL; in experiment [5], more than 50 µg/mL; in experiment [6] it was 0.017 µg/mL. Further, the In vitro neutralization IC50; virus A/California/2009 (H1N1); mAb as IgG in experiment [2] was 0.056 µg/mL. Also, the In vitro neutralization IC50; virus A/HongKong/1968 (H3N2); mAb as IgG in experiment [4] was found to be 0.104 µg/mL.
As for FNI19 Fab, the In vitro neutralization IC50; […] mAb as IgG in experiment [1] turned out to be 0.057 µg/mL; in experiment [5], 0.916 µg/mL; in experiment [6] it was 0.026 µg/mL. For the same substance, the In vitro neutralization IC50; virus A/California/2009 (H1N1); mAb as IgG in experiment [2] is 0.094 µg/mL. In experiment [3], this substance registered an In vitro neutralization IC50; virus A/Indiana/02/2020 (H1N1); mAb as IgG of 0.15 µg/mL. The same substance returned an In vitro neutralization IC50; virus A/HongKong/1968 (H3N2); mAb as IgG in experiment [4] of 0.083 µg/mL.
Regarding “Recombinant neuraminidase from B/Massachusetts/02/2012 (Yamagata) (enzyme)”, in experiment [7], the stoichiometry N – broadly, a count of units in the complex or per binding partner – came out at 4.

(Values after PMC10266979, “A pan-influenza antibody inhibiting neuraminidase via receptor mimicry” (2023).)
